Test results reported in patent US10912740B2, “Treating hepatitis C with cannabidiol” (Vilotos Pharmaceuticals, Inc., priority 2017, dated 2021).

System: hepatitis C virus
Experiment: Dose-response assay against hepatitis C virus (EC50)
Type: cell-based
Conditions: selective index, CC50 over EC50
Method: Huh7.5 cells are grown in Dulbecco's modified essential media (DMEM), 10% fetal bovine serum (FBS), 1% penicillin-streptomycin (pen-strep), 1% Non-essential amino acids (NEAA) in a 5% CO2 incubator at 37° C. Huh7.5 cells were seeded at 1×10^4 cells per well into 96-well plates according to Southern Research Institute standard format. The test article was serially diluted with DMEM plus 5% FBS. The diluted compound in the amount of 50 μl was mixed with equal volume of cell culture-derived HCV (HCVcc), then applied to appropriate wells in the plate. Human interferon alpha-2b (rIFNα-2b) was included as a positive control compound. After 72 hr incubation at 37° C., the cells were lysed for measurement of luciferase activity using Renilla Luciferase Assay System (Promega) according to manufacturer's instruction. The number of cells in each well were determined by CytoTox-1 reagent (Promega). […] HCV replicon levels are assessed as replicon derived Luc activity. The toxic concentration of drug that reduced cell numbers was assessed by the CytoTox-1 cell proliferation assay (Promega), a fluorometric assay of cell numbers (and cytotoxicity). […]

Structure (SMILES)	SI
C=C(C)[C@@H]1CCC(C)=C[C@H]1c1c(O)cc(CCCCC)cc1O [CBD, Cannabidiol]	4.954
CC(C)OC(=O)[C@H](C)N[P@](=O)(OC[C@H]1O[C@@H](n2ccc(=O)[nH]c2=O)[C@](C)(F)[C@@H]1O)Oc1ccccc1 [Sofosbuvir, reference compound]	>181
